For this assay, the target named is C-C chemokine receptor type 5 (Homo sapiens, UniProt P51681). Nature of the assay: Antagonist activity at CCR5 (unknown origin) expressed in human HOS cells co-expressing HIV-1 FITC-gp120 Bal assessed inhibition of CD4 dependent gp120 Bal binding to CCR5 by western blot analysis. On the technique in general: Immunoblotting shows a protein as a band on a membrane.

Chains of the proteins cited; added tags and fusions are not shown.
UniProt P51681, whole entry: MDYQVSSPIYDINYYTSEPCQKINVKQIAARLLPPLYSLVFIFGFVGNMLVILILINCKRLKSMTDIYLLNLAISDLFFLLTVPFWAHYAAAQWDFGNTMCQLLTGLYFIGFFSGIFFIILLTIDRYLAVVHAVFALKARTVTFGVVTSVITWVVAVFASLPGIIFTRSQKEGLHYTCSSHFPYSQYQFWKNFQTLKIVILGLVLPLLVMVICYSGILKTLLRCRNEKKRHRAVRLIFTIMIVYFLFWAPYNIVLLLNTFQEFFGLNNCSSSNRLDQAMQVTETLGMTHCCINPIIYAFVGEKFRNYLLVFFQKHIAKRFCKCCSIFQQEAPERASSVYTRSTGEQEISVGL

As usually defined, the IC50 is the concentration needed to halve the response being measured. Higher therefore signals weaker potency.

In turn, `C[C@@H](N)C(=O)N[C@@H](CO)C(=O)N[C@H](C(=O)N[C@H](C(=O)N[C@H](C(=O)N[C@@H](CC(N)=O)C(=O)N[C@@H](Cc1ccc(O)cc1)C(=O)N[C@H](C(N)=O)[C@@H](C)O)[C@@H](C)O)[C@@H](C)O)[C@@H](C)O` came in with an IC50 of 0.06 nM.

The values above are taken from ChEMBL document CHEMBL5230124, “Advances of CCR5 antagonists: From small molecules to macromolecules” (Eur J Med Chem, 2020).
